Read-outs that look alike come from different tables or passages of the source.
B1: mAb 298 (antibody, V domains shown)
VH: QVQLVQSGAEVKKPGASVKVSCKASGGTFSTYGISWVRQAPGQGLEWMGWISPNSGGTDLAQKFQGRVTMTRDTSTSTVYMELSSLRSEDTAVYYCASDPRDDIAGGYWGQGTLVTVSS
VL: not shown
B2: mAb 80 (antibody, V domains shown)
VH: QVQLVQSGAEVKKPGSSVKVSCKASGGTFNRYAFSWVRQAPGQGLEWMGGIIPIFGTANYAQKFQGRVTITADESTSTAYMELSSLRSEDTAVYYCARSTRELPEVVDWYFDLWGRGTLVTVSS
VL: DIVMTQSPDSLAVSLGERATINCKSSQSVLYSSNNKNYLAWYQQKPGQPPKLLIYWASTRESGVPDRFSGSGSGTDFTLTISSLQAEDVAVYYCQQYYSAPLTFGGGTKVEIKR

Assays:
[1] = target: T1, SARS-CoV-2 receptor binding domain (RBD), wild type (BEI NR52309) (SARS-CoV-2, UniProt P0DTC2 319-541); experiment: method and antibody format not given
[2] = target: T1, SARS-CoV-2 receptor binding domain …; experiment: BLI competition on His-tagged RBD, signal of the 2nd Ab after 1st Ab 46
[3] = target: T1, SARS-CoV-2 receptor binding domain …; experiment: BLI competition on His-tagged RBD, signal of the 2nd Ab after 1st Ab 52
[4] = target: T1, SARS-CoV-2 receptor binding domain …; experiment: BLI competition on His-tagged RBD, signal of the 2nd Ab after 1st Ab 80
[5] = target: T1, SARS-CoV-2 receptor binding domain …; experiment: BLI competition on His-tagged RBD, signal of the 2nd Ab after 1st Ab 82
[6] = target: T1, SARS-CoV-2 receptor binding domain …; experiment: BLI competition on His-tagged RBD, signal of the 2nd Ab after 1st Ab 236
[7] = target: T1, SARS-CoV-2 receptor binding domain …; experiment: BLI competition on His-tagged RBD, signal of the 2nd Ab after 1st Ab 298
[8] = target: T1, SARS-CoV-2 receptor binding domain …; experiment: BLI competition on His-tagged RBD, signal of the 2nd Ab after 1st Ab 324
[9] = target: T1, SARS-CoV-2 receptor binding domain …; experiment: method and antibody format not given; remark: listed apart in the source

| Binder | Kd [1] [nM] | RBD binding [2] | RBD binding [3] | RBD binding [4] | RBD binding [5] | RBD binding [6] | RBD binding [7] | RBD binding [8] | Kd [9] [nM] |
| --- | --- | --- | --- | --- | --- | --- | --- | --- | --- |
| B1 | 24 | 1.4 | 1.2 | 0.3 | 0.2 | 0.4 | 0.3 | 0.5 | – |
| B2 | – | 1 | 0.9 | 0.5 | 0.1 | 0.2 | 0.1 | 0.2 | 142 |
